No dose or concentration is given here for some results.
Tested on: SARS-CoV-2 spike pseudovirus
Format: cell-based

C=CCc1cc(-c2cc(CC=C)c3oc(=O)n(Cc4nnc(-c5ccccc5F)o4)c3c2)c2oc(=O)n(Cc3nnc(-c4ccccc4F)o3)c2c1 [Compound 6h]
Fold loss in antiviral entry activity relative to 6a: 2.10 fold

C=CCc1cc(-c2cc(CC=C)c3oc(=O)n(Cc4nnc(-c5ccc(OC)cc5)o4)c3c2)c2oc(=O)n(Cc3nnc(-c4ccc(OC)cc4)o3)c2c1 [Compound 6p]
Times greater inhibitory activity against pseudovirus entry than 6a: 2.97 times
